Numbering of substitutions follows the chain as printed. Human monoclonal antibodies against the spike receptor-binding domain (heavy:light variable regions). IC50 against pseudoviruses bearing the spike of naturally observed variants; lower = stronger; >10 µg/ml means not reached at the top dose. No active / inactive call. The stated detection limit is 0.0005 µg/ml; values near or below 0.001 µg/ml lie at the floor of the assay.
B1: BD56-494 (protein)
chain 1: VRLVESGGGLVQPGGSLRLSCAASGFTSFNYWMTWVRQAPGKGLEWVATIKQDGSESYYVDSVKGRFTISRDNAKNSLYLQMNSLRAEDTAVYYCARDGGQLSWFVESYFDYWGQGILVTVSP
chain 2: SYELTQSPSVSVSPGQTARITCSGDALPLQYTYWYQQKPGQAPVLVIYKDTERPSDIPERFSGSSSGTTGTLTISGVQAEDEADYYCQSGDSRGVVFGGGTKLTVL
B2: BD56-495 (protein)
chain 1: QVQLVESGGGVVQPGRSLRLSCEASGFIFSSSAMHWVRQAPGKGLEWVAVISHDGGNEYYADSVKGRFTISRDNSKNTLYLQMNSLRVEDTAVYYCTKDRFLEWLLYSDFQYWGQGTLVTVSA
chain 2: DIQMTQSPSSLSASVGDRVTITCRASQNINNYLNWYQQKPGKAPKLLIYAASSLQSGVPSRFSGSGSGTDFTLTISSLQPEDFATYYCQQSDTFGQGTKLEIK
B3: DH1128 (protein)
chain 1: EVQLVESGGDLVQPGGSLRLSCAASGFTFSTYAMTWVRQAPGKGLEWVSTISTTGGDTYYADSVKGRFTISRDNSKNTLNLHMNSLRAEDTAVYSCARHNELDYWGQGTLVTVSS
chain 2: EIVLTQSPDFQSVTPNEKVTITCRASQSIGSSLHWYQQKPDQSPKLLIKYASQSLSGVPSRFSGSGSGTDFTLTINSLEVEDGATYYCHQSSSFPRTFGQGTKVEIK
B4: BD56-503 (protein)
chain 1: QVTLRESGPALVKPTQTLTLTCTFSGFSFISNMSVSWVRQPPGKALEWLARIDWDDDKYYNRSLKTRLTISKDTSKNQVVLTMTNMDPVDTATYYCAREQWLVQRDYYGMDVWGQGTTVTVSS
chain 2: SYELTQPPSVSVSPGQTARITCSGNALAKQYGYWYQQKPGQAPVLVIYRDGERPSGIPERFSGSSSGTTVTLTISGVRAEDEADYYCQSADNGGSVFGGGTKLTVL
B5: BD56-489 (protein)
chain 1: MQLVQSGPEVKKPGTSVKVSCKAPGFTFTISSVQWVRQARGHRLEWIGWIVIGSANTKYAQNFQERATFTRDMSTGTAYMELSSLRSEDTAVYYCAAPHCNKSRCYDAFDIWGQGTMVTVSS
chain 2: EIVLTQSPGTLSLSPGERATLSCRASRSVNSHYLAWYQQEPGQPPRLLIYAASSRATGIPDRFSGSGSGTDFTLTISRLEPEDFAVYYCQQYGSSPWTFGQGTKVEIK
B6: BD56-493 (protein)
chain 1: QVQLVQSGAEVTKPGSSVKVSCKTSGDTFSRYAISWVRQAPGQGLDWMGRIIPMFGIANYAQKFQGRVTMTADKSTSTAYLELSSLRSEDTAMYYCARTPFYSDSTGYYLDYWGQGTLVTVSS
chain 2: B5 chain 2 with R27Q, N30S, S31G, H32S, E40K, A51G, G93V, S94N, W97R
B7: BD56-484 (protein)
chain 1: QVQLVESGGGAVQPGRSLRLSCTASGFTFSRYTIHWVRQAPGKGLEWVAVISYDGTFRYYADSVKGRFTISRDNSKNTLSLQMSSLRGEDTAIYYCARDQVVGSGWSSSFDYWGQGTLVTVSS
chain 2: QSALTQPRSVSGSPGQSITISCTGTSRDVGSYNYVSWYQQHPGKAPKLIIYDVTKRPSGVPGRFSASKSDNTASLTISGLQADDEGDYYCCSYAGDNTFDAYVFGTGTKVTVL
B8: BD56-502 (protein)
chain 1: EVQLVESGGGLVKPGGSLRLSCAASGFTFSTYSMNWVRQAPGKGLEWVSSISGNTSYIYFADSVKGRFTISRDNAKNSLYLQMRSLRAEDTAVYYCARDTGQTGAYSSGWYDFHRPGLNWFDPWGQGTLVTVSS
chain 2: QSVLTQPPSASGTPGQRVTISCFGSSSNVGSNTVSWYQQLPGTAPKLLIYSNNQRPSGVPDRFSGSKSGTSASLAISGLQSEDEADYYCAAWDDSLNGAWVFGGGTKLTVL
B9: BD56-516 (protein)
chain 1: QVQLVQSGSELKKPGASVKVSCKASGYTFTNHAMNWVRQAPGQGLEWMGWINTNTGDPLYAQGFTGRFVFSLDTSVSTAYLQISSLKAEDTAVYYCARDSGLLSFGQLFHAFDLWGQGTMVTVSS
chain 2: EIVLTQSPATLSLSPGERATLSCRASQSVNNYLAWYQQKPGQAPRLLIYDASHRATGIPGRFSGSGSGTDFTLTISSLEPEDFAVYYCQQRNNWLWTFGQGTKVEIK
B10: BD56-481 (protein)
chain 1: QVQLVQSGAEVKKPGSSVKVSCKASGGTFSSYTISWVRQAPGQGLEWMGRIIPILGIADYAQKFQGRVTITADKSTSTAYMELSSLRSEDTAFYYCARSGLLFDDGSGREYYYYGMDVWGQGTTVTVSS
chain 2: EIVMTQSPATLSVSPGERASLSCRASQSVGNNLTWYQQKPGQAPRLLIYDASTRATGIPARFSGSGSGTEFTLTISSLQSEDFAVYYCQQYNSWYTFGQGTKLEIK
B11: BD56-507 (protein)
chain 1: QVHLVQSGAEVKKPGASVKVSCKASGYTFSSYAISWVRQAPGQGLEWMGWITTYNGDTTYSEKLQGRVTMTTDTSTSTAYMDLRSLRSDDTAVYYCARDPGLYCSGVSCYREHDAFDFWGQGTMVTVSS
chain 2: EIVLTQSPATLSLSPGERATLSCRASQSVRGYLAWYQQKPGQAPRLLIYDSSNRATGVPARFTGSGSGADFTLSISSLEPEDYAVYYCQHRSNWPRPTFGGGTKVEIK
B12: BD56-496 (protein)
chain 1: QVQLVESGGGVVQPGRSLRLSCAASGFTFSSYTMHWVRQVPGKGLEWVAIISNDGTYKDYADSVKGRFTISRDNSKNTLYLQMNSLRPEDRAVYYCARDSDIVTTILFDYWGQGTLVTVSS
chain 2: DIQMTQSPSSLSASVGDRVTITCRASQSISRFLNWYQQKPGKAPKLLIYAASSLQSGVPSRFRGSGSGTNFTLTISSLQPEDFATYYCQQSYVNPQVTFGQGTRLEIK

What was measured:
Assay in all cases: pseudovirus neutralization IC50; higher = weaker neutralization
[1] = biological target: SARS-CoV-2 Omicron BA.1 spike pseudovirus
Method: (§1)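 Single-round VSV luciferase pseudovirus mixed with antibody dilutions for 1 h and put on Huh-7 cells for about a day; IC50 from the dose curve.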

[2] = biological target: SARS-CoV-2 Omicron BA.2 spike pseudovirus
Method: as §1

[3] = biological target: SARS-CoV-2 Omicron BA.2.75 spike pseudovirus
Method: as §1

[4] = biological target: SARS-CoV-2 Omicron BA.5 spike pseudovirus
Method: as §1

[5] = biological target: SARS-CoV-2 Omicron BQ.1.1 spike pseudovirus
Method: as §1

[6] = biological target: SARS-CoV-2 Omicron XBB spike pseudovirus
Method: as §1

[7] = biological target: SARS-CoV-2 early D614G spike pseudovirus
Method: as §1

| Binder | pseudovirus neutralization IC50 [1] [µg/mL] | pseudovirus neutralization IC50 [2] [µg/mL] | pseudovirus neutralization IC50 [3] [µg/mL] | pseudovirus neutralization IC50 [4] [µg/mL] | pseudovirus neutralization IC50 [5] [µg/mL] | pseudovirus neutralization IC50 [6] [µg/mL] | pseudovirus neutralization IC50 [7] [µg/mL] |
| --- | --- | --- | --- | --- | --- | --- | --- |
| B1 | > 10 | > 10 | > 10 | > 10 | > 10 | > 10 | > 10 |
| B2 | 2.1 | 5.49 | > 10 | 5.28 | > 10 | > 10 | 0.905 |
| B3 | > 10 | > 10 | > 10 | > 10 | > 10 | > 10 | > 10 |
| B4 | > 10 | > 10 | > 10 | > 10 | > 10 | > 10 | > 10 |
| B5 | 0.00944 | 0.00721 | 0.0134 | > 10 | > 10 | > 10 | 0.00368 |
| B6 | 0.038 | 0.0527 | 0.00383 | > 10 | > 10 | > 10 | 0.00417 |
| B7 | 1.93 | 1.76 | 1.79 | 4.6 | > 10 | > 10 | 0.201 |
| B8 | 1.3 | 1.61 | 1.44 | 5.57 | > 10 | > 10 | 0.285 |
| B9 | 0.011 | 0.0277 | > 10 | 8.48 | > 10 | > 10 | 0.0263 |
| B10 | > 10 | > 10 | > 10 | > 10 | > 10 | > 10 | 0.0884 |
| B11 | 0.375 | 0.0267 | 0.0355 | > 10 | > 10 | > 10 | 0.011 |
| B12 | 6.9 | 7.38 | 5.04 | 7.1 | 7.13 | 7.55 | 1.61 |

— the supplement of paper PMC9931576
